This note sets out measurements from patent US20220002288A1, “MONOBACTAM COMPOUNDS AND USE THEREFOR” (priority 2018, published 2022).

Where a name gives a salt, the structure may show the parent alone.

The test system of this data set is clinically isolated Acinetobacter baumannii. The data set can be described thus: MIC experiment of clinically sourced bacterial strains. The settings on record: strains of Table 4. The data set is classed as cell-based. As for the experimental part: Compounds: the compound of Example 1 and Compound C of Comparative Example 3. Both test compounds were dissolved and diluted with DMSO, and the final concentrations were prepared as 64, 32, 16, 8, 4, 2, 1, 0.5, 0.25, 0.125, 0.0625 μg/mL in the experiment.
Bacterial strains: clinically isolated Acinetobacter baumannii, Pseudomonas aeruginosa, Klebsiella pneumoniae and Escherichia coli, all provided by HD Biosciences (Shanghai) Co., Ltd.
Medium: Trypticase soy agar (TSA) (BD BBL 211043), and Cation-adjusted Mueller Hinton broth (CAMHB) (BD BBL212322).
The experimental method was the same as that in the above Experimental Example 1.

For the molecule `CC1(C)[C@H](NC(=O)/C(=N\O[C@@H](COc2ccc(-c3cn(CCCN)[n+](CC4CNC4)c3)cc2)C(=O)O)c2csc(N)n2)C(=O)N1OS(=O)(=O)[O-]` [Compound C, reference compound], the “number of strains with MIC≤0.063 μg/mL (the lowest detection concentration)” value is recorded as 2 strains.
`CC1(C)[C@H](NC(=O)/C(=N\O[C@@H](COc2ccc(C(=O)Nc3cn(CCCN)[n+](CC4CNC4)c3)cc2)C(=O)O)c2csc(N)n2)C(=O)N1OS(=O)(=O)[O-]` [Example 1, (S)-3-((Z)-2-(((S)-2-(4-((1-(3-aminopropyl)-2-(azetidin-3-ylmethyl)-1H-pyrazol-2-ium-4-yl)carbamoyl)phenoxy)-1-carboxyethoxy)imino)-2-(2-aminothiazol-4-yl)acetylamino)-2,2-dimethyl-4-oxoazetidin-1-yl Sulfate]: the “number of strains with MIC≤0.063 μg/mL (the lowest detection concentration)” value was 11 strains.
